B1: C703 (antibody, V domains shown)
VH: EVQLLESGGGLVQPGGSLRLSCAGSGFTFSHYALSWVRQAPGKGLEWVSCISGTGGNSHYADSVKGRFTSSRDNSKNILYLQMNSLRAEDTAVYFCAKGGDFWSGYLIPFDSWGQGTLVTVSS
VL: SYELTQSPSVSVAPGKTARITCGGDSIGSKNVHWYQQKPGQAPVLVMYYDNDRPSGIPERFSGYNSGNTATLSISRVEAGDEADYYCLVWDGSGDPWVFGGGTKLTVL
B2: C708 (antibody, V domains shown)
VH: EVQLVESGGGLVQPGGSLRLSCAASGFSFSTYWMSWVRQAPGKGLEWVADIKQDGSEKYFVDSVKGRFTISRDNAKNSLYLHLNSLRAEDTAVYYCAREMAGSGNYYWFGYGMDVWGQGTTVTVSS
VL: IRMTQSPSSVSASVGDRVTITCRASQGISSWLAWYQQKPGKAPKLLIYAASSLQSGVPSRFSGSESGTDFTLTISSLQPEDFATYYCQQANSFPLTFGGGTKVEIK
B3: C709 (antibody, V domains shown)
VH: QVQLVQSGAEVRKPGASVKVSCMASGYTFNTYDINWVRQGTGQGLEWMGWMNPNSGNTGHAQKFQGRVAMTVNTSMNTAYMELSSLRSEDTAVYYCARGADMLNVAVGADFDYWGQGTLVTVSS
VL: QSALTQPPSASGSPGQSVTISCTGTSSDVGGYNFVSWFQQHPGKAPKLMIYEVSKRPSGVPDRFSGSKSANTASLTVSGLQAEDEADYFCSSYAGSNNWVFGGGTKLTVL
B4: C047 (antibody, V domains shown)
VH: QVQLQESGPGLVKPSETLSLTCTVSGGSISSTTYYWDWIRQSPGKGLEWIGSIFYTGITYYSPSLKSRVTISVDTSKNQFSLRLNSMTAADTAVYYCARRLRQLWFGPWFDPWGQGTLVTVSS
VL: QSALTQPPSASGSPGQSVTISCTGTRSDVGDYNYVSWYQQHPDKAPKLIIYEVTKRPSGVPDRFSGSKSGNTASLTVSGLQAEDEADYYCSSYAGSNNVMFGGGTKLTVL
B5: C710 (antibody, V domains shown)
VH: B4 VH with T23I, S30N, S67T
VL: B4 VL with Y51F, N97S
B6: C704 (antibody, V domains shown)
VH: VQLVESGGGVVQPGRSLRLSCAASGFTFSRYGMHWVRQAPGKGLEWVAVSSYDGSNEYYANSVKGRFTISRDNSKNTLYLQMNSLRAEDTAVYYCAKTGASYCGGDCPFHFDYWGQGTLVTVSS
VL: IRMTQSPSSLSASVGDRVTITCQASQDINNYLNWYQQKPGKAPKLLIYDASDLETGVPSRFSGGGSGTDFTFTISSLQPEDIATYYCQHYNNLPITFGQGTRLEIK
B7: C707 (antibody, V domains shown)
VH: EVQLVESGGGLVKPGGSLRLSCAASGFTFSSYSMNWVRQAPGKGLAWVSSISSSNNIIYYADSVKGRFTISRDDAKDSLYLHMKSLRADDTAVYFCARVPSWAPYQLLPGPFDYWGQGILVTVSS
VL: IRMTQSPSSLSASVGDRVTITCQASQAIASYLSWYQHKPGRAPKLLIYDASNLEIGVPSRFSGSGSGTDFTFTISSLQSEDNATYYCQQYESLPGTFGGGTKVEIK
B8: C706 (antibody, V domains shown)
VH: EVQLVESGGGLVKPGGSLRLSCAASGFTFSNVWMSWVRQAPGKGLEWVGRIKSKIDGGTTEYAAPVKGRFIISRDDSKNTLSLQMNSLKTEDTAVYYCTTDHGREPPVHWGQGTLVTVSS
VL: EIVLTQSPGTLSLSPGERASLSCRARQSVYSNYLAWYQHKSGQAPRLLFYGASSRATDIPDRFSASGSGTDFTLTISRLEPEDFAVYYCLQYGPSPTFGPGTRLEIK

The values that follow come from patent publication US20220195015A1, “Neutralizing anti- sars-cov-2 antibodies” (published 2022).

Where a chain is given by its changes, count along the chain named.

For the assay, the target named is SARS-CoV-2 spike protein on HIV-1 pseudotyped particles (SARS-CoV-2, UniProt P0DTC2 14-1254). Briefly: cell-based or functional assay.
Consider B1, for which the “Neutralization IC50” value came out at 0.681 µg/mL and the “Neutralization IC90” value was above 10 µg/mL.

With B2, the “Neutralization IC50” value was determined as 0.489 µg/mL and the “Neutralization IC90” value was determined as 8.86 µg/mL.

Consider B3, for which the “Neutralization IC50” value was 0.407 µg/mL and the “Neutralization IC90” value was above 10 µg/mL.

On to B4, for which the “Neutralization IC50” value is above 10 µg/mL and the “Neutralization IC90” value is above 10 µg/mL.

B5: the “Neutralization IC50” value is above 10 µg/mL and the “Neutralization IC90” value was above 10 µg/mL.

Turning to B6, the “Neutralization IC50” value was above 10 µg/mL and the “Neutralization IC90” value was above 10 µg/mL.

As to B7, the “Neutralization IC50” value is above 10 µg/mL and the “Neutralization IC90” value was above 10 µg/mL.

In the case of B8, the “Neutralization IC50” value is 2.03 µg/mL and the “Neutralization IC90” value was above 10 µg/mL.
